Anti-infective test results gathered from many reports (values: NIAID ChemDB through PubChem).

All rows: whole-cell or culture tests; agent: Mycobacterium tuberculosis

MIC bound: limit read from a one-dose screen.

compound,strain,read by,read-out,tested at,value
CN1CSC(=S)N(c2ccc(Cl)cc2)C1,H37Rv,BACTEC,inhibition,12.5 µg/mL,25%
CCCCCCCCCCCCCCCCNC(=O)C(=O)NCCCCCCCCCCCCCCCC,H37Rv,,MIC,,100 µg/mL
COc1ccc(CCNCCNC(C)(C)CO)cc1,,,MIC,,50 µM
CC(CNCC(c1ccccc1)c1ccccc1)NC1CCCCCCC1,,,MIC,,50 µM
COc1ccc(C(=O)c2c(C(=O)NOCCCc3ccccc3)[nH]c(=O)c(C#N)c2C(=O)NOCCCc2ccccc2)cc1,H37Rv,resazurin,MIC bound,,>6.25 µg/mL
CC(=O)Nc1ccccc1C(=O)O,H37Rv,,MIC,,>100 µg/mL
CN(C)CNC(=S)S,EMB-R,,MIC,,6.3 µg/mL
COc1ccccc1CCNCCNC1CCCc2ccccc21,,,MIC,,50 µM
C[C@H](O)CNCCNCCC(c1ccccc1)c1ccccc1,,,MIC,,25 µM
Cc1ccc(NC(=O)C(Cl)(Cl)Cl)cc1Cl,H37Rv,BACTEC,inhibition,12.5 µg/mL,0%
CCC(C)NCCNC[C@]1(C)CCC[C@]2(C)c3ccc(C(C)C)cc3CC[C@@H]12,,,MIC,,12.5 µM
CC1(C)CN=C(c2ccc(N)cc2)O1,H37Rv,,MIC,,>100 µg/mL
O=C1CCc2ccccc2-c2ccccc21,H37Rv,BACTEC,MIC bound,,>12.5 µg/mL
CCCCC(CC)CN1CN(CC(CC)CCCC)CC(C)(NCCNC2CCCC2)C1,,,MIC,,25 µM
NC(=O)N/N=C1\CCSC1CCCOc1ccccc1,H37Rv,,MIC,,>100 µg/mL
CCCCCCCSC(=S)NC1c2ccccc2Oc2ccccc21,H37Rv,BACTEC,MIC,,32 µg/mL
COc1cc2nccc(Cl)c2cc1OC,H37Rv,,MIC,,>100 µg/mL
CSC[S@](=O)C[C@H](CO)NC(=O)/C=C/c1c(C)[nH]c(=O)[nH]c1=O,H37Rv,BACTEC,MIC,,≥12.8 µg/mL
CCn1c2ccccc2c2ccccc21,H37Rv,,MIC,,>100 µg/mL
CC(C)=CC/C(C)=C/CNCCNC(c1ccccc1)c1ccccc1,,,MIC,,12.5 µM
Cc1ccc2[nH]c(=O)oc(=O)c2c1,H37Rv,BACTEC,MIC bound,,>6.25 µg/mL
CCC1CCCCN1CCNCCC(c1ccccc1)c1ccccc1,,,MIC,,25 µM
c1ccc(NCCc2ccccn2)cc1,H37Rv,,MIC,,>100 µg/mL
CCCCC(CC)CN1CN(CC(CC)CCCC)CC(C)(NCCN[C@@H](CO)[C@@H](O)c2ccc(SC)cc2)C1,,,MIC,,25 µM
Oc1cc(O)cc(O)c1,H37Rv,,MIC,,100 µg/mL
COC1(c2ccccc2C)OC(=O)c2c(C)cccc21,H37Rv,BACTEC,MIC bound,,>12.5 µg/mL
O=C(CCCCC(=O)Nc1ccc(I)cc1I)Nc1ccc(I)cc1I,H37Rv,,MIC,,>100 µg/mL
CC1(C)CC(=O)OC/C=C\CC(Cc2ccccc2)C(=O)C1,H37Rv,BACTEC,MIC bound,,>12.5 µg/mL
CCCCCCCCCCCNCCNCc1ccc(F)cc1,,,MIC,,50 µM
Cc1ccc(S(=O)(=O)C(CC(=O)c2ccc(Cl)cc2)c2ccc(N(C)C)cc2)cc1,H37Rv,,MIC,,>100 µg/mL
Cc1cc2nc3c(=O)[nH]c(=O)nc-3n(C/C=N/NC(N)=S)c2cc1C,H37Rv,BACTEC,inhibition,12.5 µg/mL,-4%
C=CCN(CCNC(C)Cc1ccc(Cl)cc1)C1CCCC1,,,MIC,,50 µM
O=C(C(=O)c1cccc([N+](=O)[O-])c1)c1cccc([N+](=O)[O-])c1,H37Rv,,MIC,,>100 µg/mL
c1ccc(C(CNCCNCCCN2CCOCC2)c2ccccc2)cc1,,,MIC,,25 µM
ON=C(c1ccc(Br)cc1)c1ccc(Br)cc1,H37Rv,,MIC,,>100 µg/mL
COc1cc(CN2Cc3c(N)nc(N)nc3C2=O)cc(OC)c1C,H37Rv,BACTEC,MIC bound,,>12.8 µg/mL
Fc1ccccc1CCNCCN1CCCC2CCCCC21,,,MIC,,50 µM
CC1(C)NC(=S)C(C)(C)N1N=O,H37Rv,BACTEC,MIC bound,,>12.5 µg/mL
C=CC(N)=O,H37Rv,,MIC,,100 µg/mL
C[C@]12C=CC(=O)C=C1CC[C@@H]1[C@@H]2CC[C@]2(C)OC(=O)C(=O)C[C@@H]12,H37Rv,,MIC bound,,>6.25 µg/mL
COc1ccc(NC(C)=O)cc1N,H37Rv,,MIC,,>100 µg/mL
CC(C)c1ccc2c(c1)CC[C@H]1[C@](C)(CNCCNCC(O)c3ccccc3)CCC[C@]21C,,,MIC,,12.5 µM
CN(C)CC(O)CO,H37Rv,,MIC,,100 µg/mL
CCOC(=O)c1cnc2c(ccc3ncccc32)c1NCCCN(CC)CC,H37Rv,BACTEC,MIC bound,,>12.5 µg/mL
CC1CCC(NCCNCCNc2ccccc2)CC1,,,MIC,,50 µM

Repeating the final 6 entries:

compound | strain | read by | read-out | tested at | value
C[C@]12C=CC(=O)C=C1CC[C@@H]1[C@@H]2CC[C@]2(C)OC(=O)C(=O)C[C@@H]12 | H37Rv |  | MIC bound |  | >6.25 µg/mL
COc1ccc(NC(C)=O)cc1N | H37Rv |  | MIC |  | >100 µg/mL
CC(C)c1ccc2c(c1)CC[C@H]1[C@](C)(CNCCNCC(O)c3ccccc3)CCC[C@]21C |  |  | MIC |  | 12.5 µM
CN(C)CC(O)CO | H37Rv |  | MIC |  | 100 µg/mL
CCOC(=O)c1cnc2c(ccc3ncccc32)c1NCCCN(CC)CC | H37Rv | BACTEC | MIC bound |  | >12.5 µg/mL
CC1CCC(NCCNCCNc2ccccc2)CC1 |  |  | MIC |  | 50 µM

An empty or dashed field is not shown. Conditions beyond the fields shown may differ between rows. Inhibition is in % at the dose shown (toxicity tests: loss of growth or viability).